PubChem BioAssay AID624268 (The Scripps Research Institute Molecular Screening Center, 2012)
This is a selection; strong and weak results do not stand in their true shares. Activity calls are given as the source filed them.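 How the source made its calls: active means inhibition above a per-plate cutoff of the control wells' mean inhibition plus 3 SD (cut at about 5.5% in these data); inactive means the rest.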

test system: methionyl-tRNA synthetase (Trypanosoma brucei brucei); test: T. brucei MetRS inhibitors, primary screen, biochemical, luminescence (AID 624268);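 further: 0% = DMSO wells median and 100% = median of wells with control inhibitor compound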; conditions: purified T. brucei MetRS, ATP depletion, Kinase-Glo luminescence; at 11.9 µM; hits give high values
Summary of the method: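 assay system = parasite MetRS enzyme | timing = 15 min preincubation, 2 h reaction, all 25 °C | evaluation = percent inhibition relative to median high and low control wells | medium = HEPES buffer containing pyrophosphatase, BSA, spermine, DTT | compound = single dose, 11.9 µM final nominal, 0.9% final DMSO | detection = Kinase-Glo luminescence, ATP depletion format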

SMILES | inhibition
COc1ccc(N/C(=N/P(=O)(N2CCOCC2)N2CCOCC2)N2CCOCC2)cc1 | inactive: -0.5%
O=P1(N(CCCl)CCCl)Nc2ccccc2N1 | inactive: -0.28%
O=P1(N(CCCl)CCCl)OCCCN1CCCl (stereo not drawn) | inactive: -0.07%
COc1cc(I)ccc1[As](=O)(O)O | inactive: 0.26%
COc1ccc2nc(NP(=O)(c3ccccc3)c3ccccc3)sc2c1 | inactive: 0.58%
Cc1c2c(nc3ccccc13)SC(C(Cl)Cl)C2 (stereo not drawn) | inactive: 0.17%
Cc1cc(=O)[nH]c(N[N+](=O)[O-])n1 | inactive: -0.68%
O=C(OC1CN2CCC1CC2)C12CC3CC(CC(C3)C1)C2 (stereo not drawn) | inactive: 0.04%
CCC(C)N(CC(C)C)C(=S)SC(NC(C)=O)C(Cl)(Cl)Cl (stereo not drawn) | inactive: 0.53%
CSc1ccc(Nc2c([N+](=O)[O-])cc([N+](=O)[O-])cc2[N+](=O)[O-])cc1 | inactive: -0.13%
O=C(OC1CN2CCC1CC2)c1cccc([N+](=O)[O-])c1 (stereo not drawn) | inactive: -0.93%
CCOC(=O)c1ccc(NC(=O)C(C)(CCl)SC)cc1 (stereo not drawn) | inactive: -0.45%
O=C(O)C(=O)c1ccc(N(CCCl)CCCl)cc1 | inactive: 0.23%
O=C(Nc1ccncc1[N+](=O)[O-])c1ccc([N+](=O)[O-])cc1[N+](=O)[O-] | inactive: -0.87%
O=C(COc1ccccc1)OC1CN2CCC1CC2 (stereo not drawn) | inactive: 0.12%
COC(=O)C1(C)COP(=O)(N2CCCC2)OC1 (stereo not drawn) | inactive: -1.01%
COP1(=S)c2c(C)nn(CCC#N)c2N=C(c2ccc(F)cc2)N1C (stereo not drawn) | inactive: -0.44%
O=P(Nc1ccccn1)(c1cccc2ccccc12)c1cccc2ccccc12 | inactive: 0.28%
Cc1cc(SC(NC=O)C(Cl)(Cl)Cl)ncn1 (stereo not drawn) | inactive: -1.06%
O=[N+]([O-])c1ccc(Nc2ccc(Oc3ccc([N+](=O)[O-])cc3[N+](=O)[O-])cc2)c([N+](=O)[O-])c1 | inactive: 0.92%
CCOC(=O)Nc1cccc([As](=O)(O)O)c1 | inactive: -1.75%
COP(=O)(OC)N1CC1c1ccccc1 (stereo not drawn) | inactive: 0.09%
Cc1cc(SC(NC(=O)c2ccccc2)C(Cl)(Cl)Cl)nc(C(C)C)n1 (stereo not drawn) | inactive: -1.41%
CCCCOc1ccc(C(=O)NCC2(N3CCCCC3)CCCCC2)cc1OC | inactive: -0.09%
CCOC(=O)Nc1ccc([As](=O)(O)O)c(O)c1 | inactive: -0.32%
O=C(O)C(O)c1ccc(N(CCCl)CCCl)cc1 (stereo not drawn) | inactive: -0.15%
CC1CCNP(=O)(N(CCCl)CCCl)O1 (stereo not drawn) | inactive: -0.3%
Nc1cccc([As](=O)(O)c2ccccc2)c1 | inactive: -0.47%
